Primary screen of a compound library

From ChEMBL document CHEMBL3988442, “University of Dundee, Small-Polar-MMV Screening Library” (2021).

Mtb cholesterol medium: 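Whole-cell growth test on Mycobacterium tuberculosis, read after 4 days in a medium based on cholesterol and the lipid DPPC; the read-out is not stated. Compounds at 500 µM. Direction is inferred from retests: higher values go with more growth inhibition. About 18,000 compounds were tested under these conditions; 5% (about 900) showed 50% or more at least once.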
Mtb glucose medium: 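Phenotypic screen: M. tuberculosis growth, glucose 7H9 medium, 3 days; the read-out is not stated. Tested at 500 µM. Direction is inferred from retests: higher values go with more growth inhibition. Size under these conditions: about 18,000 compounds, about 1,400 of them at 50% or above in at least one test.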

Results are given as percent effect.
The controls that fix the scale are not given in the record; negative values are as filed.
Many other results are left out here, so strong results are more common than in the screen.
A dash means the value is not listed here; it may have been measured.

SMILES	Mtb cholesterol medium	Mtb glucose medium
CN(C)CCNC(=O)c1cccs1	-	9.697
CN(CC1COc2ccccc2O1)C(=O)C1CCC1 (stereo not drawn)	91.31	88.23
CN(C)S(=O)(=O)N1CCCC1COc1ccccc1 (stereo not drawn)	93.42	81.47
COCCN(C)S(=O)(=O)c1cc(F)c(C)cc1F	-	51.44
CC(NC(=O)c1ccc(C(C)(C)C)cc1)C(N)=O (stereo not drawn)	-2.897	4.764
COCCN(Cc1cccnc1)C(=O)c1csc(C)n1	-	2.229
CC(C)N(CC(F)F)C(=O)C(N)c1ccccc1 (stereo not drawn)	-	7.183
COCCCNc1ccc(C(F)(F)F)cn1	2.212	-5.247
O=C(NCCC(=O)N1CCCC1)Nc1nncs1	-	1.761
CC(C)(N)c1nc(=O)c2c([nH]1)CCC2	-	0.9383
CC(Sc1nnc(-c2ccccc2F)n1C)C(N)=O (stereo not drawn)	-1.039	-
NS(=O)(=O)N1CCN(CCCc2cccc(F)c2)CC1	11.19	57.38
CCc1ccc(CNc2ccc(CO)cn2)cc1	89.12	70.54
N#CC1CC(=O)N(Cc2ccccc2)C1 (stereo not drawn)	-	24.96
COc1ccccc1C(N)c1nccn1C (stereo not drawn)	-	30.54
NCc1nc2c(s1)CCCC2	13.72	14.55
CCCc1nc(C)cc(NCCN(C)S(C)(=O)=O)n1	-	8.459
CC(C(=O)NCc1ncccc1F)N1CCSCC1 (stereo not drawn)	17.16	-
CSCCC(=O)N(C)Cc1cccc(-n2cccn2)c1	65.14	75.35
CS(=O)(=O)c1ccc(C2CNCCO2)cc1 (stereo not drawn)	-	-5.144
CN(C)C(=O)CCCn1ccc(N)n1	2.415	-3.803
CN(Cc1ccccc1)C1=NS(=O)(=O)c2ccccc21	-16.78	-
O=c1c2cccnc2ncn1CCOCC(F)F	-17.59	-3.229
c1c[nH]c(C2CCCNC2)n1 (stereo not drawn)	-10.09	-
O=C(NC1CC1)c1cc(-c2cccs2)on1	28.69	41.35
CC[C@@H](CO)NC(=O)NCC(C)c1ccsc1 (stereo partly drawn)	62.32	74.29
Cc1ccc(Cl)c(OCC(=O)NN2CCOCC2)c1	-	0.3023
CCn1ncc(N)c1C(N)=O	-	13.31
CC(C)c1cc(C(=O)N[C@@H]2CCOC[C@H]2O)cs1	62.76	25.31
COC(=O)N1CC(NC(=O)c2cc(C(C)=O)c[nH]2)C1	72.84	12.72
CC(C(=O)N1CCOCC1)S(=O)(=O)c1ccccn1 (stereo not drawn)	2.49	7.316
CN1CCCN(S(=O)(=O)c2ccccc2)CC1	-	26.16
CC(=O)c1csc(C(=O)Nc2n[nH]c(C3CCC3)n2)c1	-5.105	-
O=C(CCc1cc(Cl)no1)N1CCOC(C(F)(F)F)C1 (stereo not drawn)	58.95	63.4
[H][C@]12CNC[C@]([H])(CN(S(=O)(=O)c3ccc(OC)cc3)C1)O2	-	17.86
CNC(=O)CNC(=O)c1cc2ccccc2cc1OC	-	58.52
COCCCNCc1ccc2c(c1)OCCO2	5.203	-1.157
O=C(NCC(CO)Cc1cccnc1)C1CCCC1 (stereo not drawn)	10.81	-
COc1cccc(SCC(=O)N2CCOC(C)C2)c1 (stereo not drawn)	-	53.18
CC(C)(C)OC(=O)NCC1CCNC1 (stereo not drawn)	-	26.77
COc1cc(NC(=O)N2CCCN(C)CC2)ccc1Cl	7.824	29.47
O=C1NCCc2c(F)cc(Br)cc21	-	32.01
O=C(CSCc1ccncc1)NCc1c[nH]nn1	1.884	-
CO[C@H]1CNCC1NS(=O)(=O)CCOC(C)C (stereo partly drawn)	-	9.766
CC(C)(CN)C1(O)CCCOC1 (stereo not drawn)	-1.055	-
CS(=O)(=O)CC1(CN2CCNC(=O)CC2)CCC1	-	-5.97
CCC[C@H]1CN(C(=O)Cc2cccc(OC)c2)C[C@@H]1N	21.76	-
Cc1ccc(N2C=NS(=O)(=O)c3cccnc32)cc1C	-	-6.813
NC1CCn2cncc21 (stereo not drawn)	-	1.26
N#CC1COCCN1Cc1ccc2ncccc2c1 (stereo not drawn)	-	-25.4
Cc1nn(C)cc1C(=O)N1C[C@@H](CO)[C@H](N(C)C)C1	2.191	-
Cc1ccc(C(=O)N(C)CC2(C)CCOCC2)cn1	-3.272	-
NC(=O)C1CCCCN1Cc1cn2ccccc2n1 (stereo not drawn)	-	5.683
CC(=O)c1ccn(C)n1	10.88	-

Some entries from above, unchanged:

| SMILES | Mtb cholesterol medium | Mtb glucose medium |
|---|---|---|
| `NC(=O)C1CCCCN1Cc1cn2ccccc2n1` (stereo not drawn) | - | 5.683 |
| `Cc1ccc(Cl)c(OCC(=O)NN2CCOCC2)c1` | - | 0.3023 |
| `O=C(CCc1cc(Cl)no1)N1CCOC(C(F)(F)F)C1` (stereo not drawn) | 58.95 | 63.4 |
| `COc1cc(NC(=O)N2CCCN(C)CC2)ccc1Cl` | 7.824 | 29.47 |
| `CC(C(=O)N1CCOCC1)S(=O)(=O)c1ccccn1` (stereo not drawn) | 2.49 | 7.316 |